In patent US8901042B2, “High throughput screen for measuring membrane effects” (Cornell University, priority 2009, dated 2014):

Tested on: gramicidin A (gA) channels in DC22:1PC lipid bilayer vesicles
Assay: gramicidin-based stopped-flow fluorescence quench assay (Tl+ influx into ANTS-filled, gA-doped LUVs)
Type: biochemical, Bacillus brevis
Conditions: at the concentration where the molecules double or half the rate of fluorescence quenching
Method: 24 hours before fluorescence measurements, ANTS-filled liposomes were mixed 1:20 in S_Na_Buffer. For the portion of liposomes that are to be doped with gramicidin, the desired amount of gramicidins was added at this time. […] Gramicidin diluted in DMSO was used, but the added DMSO was kept to an absolute minimum (<0.1% of volume) as DMSO of >0.5% affects bilayer properties. The solution was stored at 12-13° C. in the dark.
The modifier in question was diluted in DMSO. The same amount of DMSO was added to all samples, including control.
For each condition: • 1. Use 1.5 mL of diluted ANTS-liposomes for each condition (compound, concentration). • 2. Add compound at the desired concentration and incubate for 10 min at 25° C. (keep in dark), or DMSO for controls. • 3. Record fluorescence, x8 repeats, with S_Na_Buffer (the first four should be removed due to mixing). • 4. Record fluorescence, x12 repeats, with S_Tl_Quencher (the first four should also be removed due to mixing).
Generate fluorescent liposomes. […] 1,2-Dierucoyl-sn-Glycero-3-Phosphocholine lipids, from Avanti Polar Lipids (Alabaster, Ala.), were bought in a lipid/chloroform solution and used without further purification. For each batch of vesicles, the lipid/chloroform solution was dried under nitrogen and then further dried in a dessicator under vacuum overnight to fully remove the chloroform. The dried lipid film was rehydrated in 100 mM NaNO3, 25 mM ANTS, 10 mM HEPES at pH 7.0 at room temperature over night, volume was adjusted to give a 10 mM lipid concentration. […] Before the fluorescence experiments ANTS-LUV stock was diluted 1:20 with 140 mM NaNO3, 10 mM HEPES, pH 7.0 buffer. […]
The fluorescence was measured using a SX.20 Stopped-Flow Spectrometer (Applied Photophysics, Leatherhead, UK), with a 150-W Xenon lamp, a two sample rapid mixing unit with machine dead time˜1.2 ms and a thermostatting water bath set to 25° C. The samples were excited at X=352 nm and fluorescence was recorded though λ=455 nm high pass filter with Pro-Data control software from Applied Photophysics, sampling 5000 points a second. For each sample at least 10 repeated mixing trials were measured, from two or more vesicle preparations. Each repeat was separately analyzed using MATLAB v7.4, The MathWorks, Inc (Natick, Mass.). The time course of fluorescence quenching was normalized to the average fluorescence without quencher, for that particular sample, and the first 2-100 ms of the time course was fitted with a stretched exponential. The initial influx rate is quantified as the rate of the stretched exponential at 2 ms.

Row | SMILES | Lipids/drug: number of lipids per molecule at their active concentration (~1/mAM)
1 | C[S+](C)[O-] [Dimethyl sulfoxide] | 90
2 | Oc1cc2c(cc1O)CN(C(=S)NCCc1ccc(Cl)cc1)CCC2 [Capsazepine] | 15
3 | OC(c1cc(C(F)(F)F)nc2c(C(F)(F)F)cccc12)C1CCCCN1 (stereo not shown) [Mefloquine] | 8
4 | O=c1c(-c2ccc(O)cc2)coc2cc(O[C@@H]3O[C@H](CO)[C@@H](O)[C@H](O)[C@H]3O)cc(O)c12 [Genistin] | 200
